## Share of PSTVd stem 3 variants by leaf site

Source: Wu et al. 2024 (doi:10.1371/journal.ppat.1012142), supplementary data.

The pool varies stem 3 of the PSTVd intermediate strain in the pattern GUGGUUCCGNANNCNN; wild type is GUGGUUCCGGAACCGC (upper and lower strand joined, each 5' to 3', the first 8 letters being the upper strand).

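A pool of all variants was put on leaves of three Nicotiana benthamiana plants. Samples came from the inoculated region at 5 days, the leaf margin at 10 and upper systemic leaves at 12.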

Numbers give reads per thousand; 0 = not seen among the reads, higher = more abundant.
Each site shows the three plants.
"Pool" is the share in the plasmid pool used as inoculum, on the same scale.
The inoculated region was read from the minus strand, the other sites from the plus strand.
The authors trace changes outside the varied positions to PCR and sequencing errors or to mutation in the plant; presence does not show that a variant is infectious alone.
For reference, wild type rose from 17.3 per thousand in the pool to 330, 345, 235 (inoculated region), 794, 766, 816 (leaf margin) and 830, 792, 869 (systemic leaves).
Samples held 27,691 to 54,225 reads, so the smallest values rest on one or two reads.

sequence	pool	inoculated region	leaf margin	systemic leaves
AUGGUUCCGGACUCUC	0.0154	0 0 0	0 0 0	0 0 0
GUGGUUCCGUAAUCAA	0.846	0.986 0.776 0.865	0 0 0.0361	0 0 0
GUGGUUCCGUACGCUU	0.739	0.347 0.323 0.297	0.0283 0 0.0361	0 0 0
GUGGUUCCGUAUACUA	1.00	0.506 0.259 0.216	0 0 0.0722	0 0 0
GUGGUUCCGUAUACGG	0.939	0.400 0.431 0.243	0.0283 0 0	0 0 0
GUGGUUCCGCACCCAC	0.631	0.267 0.323 0.243	0 0 0.0361	0 0 0
GUGGUUCCGGAACCCA	0.769	0.347 0.388 0.270	0.0283 0 0	0 0 0
GUGGUGCCGACGCCAA	0.0154	0 0 0	0 0 0	0 0 0
GUGGUUCCGCAUUCUG	1.22	0.533 0.453 0.351	0.0283 0.0636 0.0361	0 0 0
GUGGUUCCGCAGACUC	0.831	0.267 0.431 0.135	0.0283 0.0318 0	0 0 0
GUGGUUCCGGAAACGU	1.43	0.666 0.474 0.297	0 0 1.05	0.0932 0.0184 0.0243
GUGGUUCCGCACACAC	1.02	0.320 0.302 0.216	0.0567 0.0636 0	0 0 0
GUGGUUCCGUAUUCUC	0.754	0.480 0.453 0.189	0.0283 0 0	0 0 0
GUGGUUCCGAACUCGU	0.877	0.933 0.733 0.594	0 1.05 0.506	0 0 0
GUGGUUCCGCAACCAU	0.908	0.666 0.712 1.11	0.0283 0 0	0 0 0
GUGGUUCCGUAGGCCC	0.816	0.373 0.388 0.243	0.0283 0 0	0 0 0
GUGGUUCCGGACGCUU	0.923	0.293 0.367 0.243	0.0283 0.0318 0	0 0 0
GUGGUUCCGCACUCAU	0.862	0.826 0.992 1.11	0.255 1.05 0.939	0 0 0
GUGGUUCCGGAACCAA	0.693	0.320 0.453 0.297	0 0 0	0 0 0
GUGGUUCCGAAAACGA	0.785	0.373 0.474 0.243	0 0.0636 0.0361	0 0 0
GUGGUUCCGUAUGCGA	0.723	0.293 0.216 0.162	0 0.0318 0	0 0 0
GUUGUUCCGUAAUCGC	0.0154	0 0 0	0 0 0	0 0 0
GUGGUUCCGGAGUCGU	0.800	0.826 0.819 0.540	0 0 0	0 0 0
GUGGUUCCGAAGCCGG	0.877	0.613 0.755 0.703	0 0 0	0 0 0
GUGGUUCCGGAAACUA	1.28	0.480 0.345 0.243	0 0 0	0.0373 0 0
GUGGUUCCGUAAGCUG	0.662	0.400 0.280 0.216	0 0 0	0 0 0
GUGGUUCCGUACUCAA	1.63	1.36 1.36 1.76	0 0 0.0361	0.205 0.0184 0
GUGGUUCCGUACGCGU	0.954	0.347 0.453 0.243	0 0.0636 0.0361	0.0932 0 0
GUGGUUCCGCAUGCCU	0.846	0.320 0.302 0.297	0.0283 0 0	0 0 0
GUGGCUCCGAACCCUG	0.0154	0 0 0	0 0 0	0 0 0
GUGGUUCCGGAUUCCU	1.57	1.07 1.49 1.27	0 0.0636 0.0722	0.0186 0 0
GUGGUUCCGAAGGAUU	0.0154	0.480 0.323 0.540	0 0 0	0 0 0
GUGGUUCCGAAGACAU	0.785	0.693 0.539 1.00	1.53 0.986 0.542	1.10 0.996 0.730
GUGGUUCCGAAGUCUG	0.785	0.853 0.668 1.16	0 1.24 0.361	0 0 0
GUGGUUCCGUAAACAC	0.923	0.320 0.280 0.243	0 0.0318 0	0 0 0
GUGGUUCCGCAAUCCG	0.985	0.267 0.0863 0.378	0 0.0318 0.0361	0 0 0
GUGGUUCCGAAACCAC	0.877	0.773 0.647 1.03	0.0283 0 0	0 0 0
GUGGUUCCGCAGCCUG	0.846	0.293 0.302 0.189	0 0.0318 0	0 0 0
GUGGUUCCGGAACCGG	0.908	0.693 0.367 0.676	0.368 0.286 0.217	0.391 0.314 0.486
GUGGUUCCGCAAGCGU	0.646	0.426 0.367 0.189	0 0 0	0 0 0
GUGGUUCCGUAGCCAU	0.554	0.800 0.625 0.892	0 0.0954 0	0 0 0
GUGGUUACGAACCCUG	0.0154	0 0 0	0 0 0	0 0 0
GUGGUUCCGAACGCCA	0.708	0.400 0.518 0.351	0 0 0.0361	0 0 0
GUGGGUCCGAAAUCAC	0.0154	0 0 0	0 0 0	0 0 0
GUGGUUCCGAAGUCCG	0.769	0.826 0.668 0.865	0 0.923 0.433	0 0 0
GUGGUUCCGGAAACAC	0.985	0.213 0.388 0.189	0.0283 0 0	0 0 0
GUGGUUCCGAAACCUC	0.754	0.267 0.496 0.189	0 0.0318 0.0361	0 0 0
GUGGUUCCGGAUGCUC	0.846	0.480 0.280 0.189	0 0 0	0 0 0
GUGGUUCCGCAUGCGG	1.03	0.720 0.733 0.594	0 0 0.0361	0 0 0
GGGGUUCCGGAUCCGC	0.0154	0 0 0	0 0 0	0.0186 0 0
GUGGUUCCGGAUGCAG	0.893	0.800 0.582 0.351	0 0 0.0361	0.0186 0 0
GUGGUUCCGGAUCCCC	0.723	0.400 0.302 0.243	0.0567 0 0	0 0 0
GUGGUUCCGUAGACGA	1.00	0.506 0.129 0.243	0 0 0	0.0186 0 0
GUGGUUCCGUAUGCGU	1.66	0.453 0.539 0.540	0.878 0.0318 0	0.0932 0 0
GUGGUUCCGAAUCCGG	0.646	0.826 0.884 0.757	0.113 0 0.289	0 0 0
GUGGUUCCGAAUUCUC	0.846	1.09 0.647 0.540	0 0 0	0 0.0369 0
GUGGUUCCGAAUACGA	0.677	0.426 0.410 0.378	0 0 0.0361	0 0 0
GUGGGUCCGGAGACGG	0.0154	0 0 0	0 0 0	0 0 0
GUGGUUCCGGAAUCGU	3.48	2.67 1.90 2.81	0.283 0.0636 0.469	0.317 0 0
GUGGUUCCGCAUGCAU	0.970	0.933 1.06 1.22	0.765 0.891 0.289	0 0 0
GUGGUUCCGCAUCCAU	0.754	1.09 1.04 1.65	0 0.0318 0.253	0 0 0
GUGGUUCCGUAAACGA	0.785	0.400 0.302 0.0811	0 0 0	0 0 0
GUGGUUCCGAAGCCCC	0.785	0.933 0.604 1.11	0 0 0.433	0 0 0
GUGGUUCCGGAUCCGU	1.39	0.560 0.625 0.243	0 0 0.0361	0.0559 0 0
GUGGUUCCGCAGUCUU	1.43	1.07 0.949 1.19	1.61 1.27 0.289	1.21 1.40 0.778

The last 3 entries again:

{"sequence": "GUGGUUCCGAAGCCCC", "pool": "0.785", "inoculated region": "0.933 0.604 1.11", "leaf margin": "0 0 0.433", "systemic leaves": "0 0 0"}
{"sequence": "GUGGUUCCGGAUCCGU", "pool": "1.39", "inoculated region": "0.560 0.625 0.243", "leaf margin": "0 0 0.0361", "systemic leaves": "0.0559 0 0"}
{"sequence": "GUGGUUCCGCAGUCUU", "pool": "1.43", "inoculated region": "1.07 0.949 1.19", "leaf margin": "1.61 1.27 0.289", "systemic leaves": "1.21 1.40 0.778"}